Assay results taken from PMC12678819, “Targeting bacterial kinases as a strategy to counteract antibiotic resistance” (2025).
Where “and” joins values, the source holds several entries; their conditions need not be identical. Equal values may be shown once.

The chains behind the UniProt entries cited, without tags or fusion partners. Residues count along the entry.
UniProt O68183, 1-301: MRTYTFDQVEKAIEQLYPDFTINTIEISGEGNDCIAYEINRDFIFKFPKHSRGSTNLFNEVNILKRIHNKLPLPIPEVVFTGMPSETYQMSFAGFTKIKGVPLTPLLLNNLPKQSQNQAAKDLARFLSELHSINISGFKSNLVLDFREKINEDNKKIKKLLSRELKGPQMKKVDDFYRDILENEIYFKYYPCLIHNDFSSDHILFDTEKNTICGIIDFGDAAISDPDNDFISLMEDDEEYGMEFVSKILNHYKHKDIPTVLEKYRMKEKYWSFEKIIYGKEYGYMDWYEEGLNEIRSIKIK

Assays:
[1] = target: T1, APH(2”)-IVa (Enterococcus casseliflavus, UniProt O68183); experiment: Thermal shift assay; details: 500 µM compound
[2] = target: T1, APH(2”)-IVa; experiment: Pyruvate Kinase-Lactate Dehydrogenase-coupled enzyme assay; details: for Inhibition (%) at 10 µM: 10 µM compound; for Ki: 25°C, competitive vs MgATP, 100 µM kanamycin A
[3] = system: Pseudomonas aeruginosa C0214; experiment: Bacterial growth / checkerboard assay with kanamycin A
[4] = system: E. faecalis ATCC 29212; experiment: Cellular uptake assay; details: single replicate
[5] = system: S. aureus ATCC 33591 (MRSA); experiment: Cellular uptake assay; details: single replicate
[6] = system: K. pneumoniae ATCC 43816; experiment: Cellular uptake assay; details: single replicate
[7] = system: E. coli ΔtolC strain; experiment: Cellular uptake assay; details: single replicate
[8] = system: E. coli ATCC 25922; experiment: Cellular uptake assay; details: single replicate

Compound: CC(C)(C)C(=O)OCn1cc(-c2c(Cl)cnc3[nH]ccc23)nn1
- ΔTm (°C) at 500 µM [1]: 2.04 °C
- Inhibition (%) at 10 µM [2]: 82%
- Ki [2]: 2400 nM

Compound: Fc1ccc(-n2cc(-c3c(Cl)cnc4[nH]ccc34)nn2)cc1
- ΔTm (°C) at 500 µM [1]: 0.23 °C
- Inhibition (%) at 10 µM [2]: 73%
- Ki [2]: 6300 nM

Compound: OC[C@@H](O)Cn1cc(-c2c(Cl)cnc3[nH]ccc23)nn1
- ΔTm (°C) at 500 µM [1]: 1.21 °C
- OD600nm ([3]; inhibitor 125 µM, KanaA 0 µg.mL-1): 0.3662
- OD600nm ([3]; inhibitor 125 µM, KanaA 8 µg.mL-1): 0.3282
- OD600nm ([3]; inhibitor 125 µM, KanaA 16 µg.mL-1): 0.3218
- OD600nm ([3]; inhibitor 125 µM, KanaA 32 µg.mL-1): 0.1796
- OD600nm ([3]; inhibitor 125 µM, KanaA 64 µg.mL-1): 0.00015
- OD600nm ([3]; inhibitor 125 µM, KanaA 128 µg.mL-1): 0.0000
- OD600nm ([3]; inhibitor 125 µM, KanaA 256 µg.mL-1): 0.0000
- OD600nm ([3]; inhibitor 125 µM, KanaA 512 µg.mL-1): 0.0000
- OD600nm ([3]; inhibitor 125 µM, KanaA 1024 µg.mL-1): 0.0000
- OD600nm ([3]; inhibitor 125 µM, KanaA 2048 µg.mL-1): 0.0000
- OD600nm ([3]; inhibitor 125 µM, KanaA 4096 µg.mL-1): 0.0035
- OD600nm ([3]; inhibitor 250 µM, KanaA 0 µg.mL-1): 0.3709
- OD600nm ([3]; inhibitor 250 µM, KanaA 8 µg.mL-1): 0.3282
- OD600nm ([3]; inhibitor 250 µM, KanaA 16 µg.mL-1): 0.3352
- OD600nm ([3]; inhibitor 250 µM, KanaA 32 µg.mL-1): 0.1559
- OD600nm ([3]; inhibitor 250 µM, KanaA 64 µg.mL-1): 0.0000
- OD600nm ([3]; inhibitor 250 µM, KanaA 128 µg.mL-1): 0.0000
- OD600nm ([3]; inhibitor 250 µM, KanaA 256 µg.mL-1): 0.0000
- OD600nm ([3]; inhibitor 250 µM, KanaA 512 µg.mL-1): 0.0003
- OD600nm ([3]; inhibitor 250 µM, KanaA 1024 µg.mL-1): 0.0006
- OD600nm ([3]; inhibitor 250 µM, KanaA 2048 µg.mL-1): 0.0015
- OD600nm ([3]; inhibitor 250 µM, KanaA 4096 µg.mL-1): 0.0038
- OD600nm ([3]; inhibitor 500 µM, KanaA 0 µg.mL-1): 0.3763
- OD600nm ([3]; inhibitor 500 µM, KanaA 8 µg.mL-1): 0.3312
- OD600nm ([3]; inhibitor 500 µM, KanaA 16 µg.mL-1): 0.3413
- OD600nm ([3]; inhibitor 500 µM, KanaA 32 µg.mL-1): 0.0771
- OD600nm ([3]; inhibitor 500 µM, KanaA 64 µg.mL-1): 0.0000
- OD600nm ([3]; inhibitor 500 µM, KanaA 128 µg.mL-1): 0.0000
- OD600nm ([3]; inhibitor 500 µM, KanaA 256 µg.mL-1): 0.0000
- OD600nm ([3]; inhibitor 500 µM, KanaA 512 µg.mL-1): 0.0000
- OD600nm ([3]; inhibitor 500 µM, KanaA 1024 µg.mL-1): 0.0000
- OD600nm ([3]; inhibitor 500 µM, KanaA 2048 µg.mL-1): 0.0027
- OD600nm ([3]; inhibitor 500 µM, KanaA 4096 µg.mL-1): 0.0024
- Inhibition (%) at 10 µM [2]: 90%
- Ki [2]: 404 nM

Compound: C[C@H](CO)n1cc(-c2c(Cl)cnc3[nH]ccc23)nn1
- ΔTm (°C) at 500 µM [1]: 1.09 °C
- Inhibition (%) at 10 µM [2]: 74%
- Ki [2]: 1000 nM

Compound: C[C@H](CCO)n1cc(-c2c(Cl)cnc3[nH]ccc23)nn1
- ΔTm (°C) at 500 µM [1]: 1.43 °C
- Inhibition (%) at 10 µM [2]: 90%
- Ki [2]: 348 nM

Compound: OC[C@H](O)Cn1cc(-c2c(Cl)cnc3[nH]ccc23)nn1
- ΔTm (°C) at 500 µM [1]: 1.56 °C
- Inhibition (%) at 10 µM [2]: 85%
- Ki [2]: 479 nM

Compound: COC(=O)Cn1cc(-c2c(Cl)cnc3[nH]ccc23)nn1
- ΔTm (°C) at 500 µM [1]: 1.48 °C
- Inhibition (%) at 10 µM [2]: 91%
- Ki [2]: 425 nM

Compound: Nc1ccc(Cl)cn1
- ΔTm (°C) at 500 µM [1]: 1.25 °C
- Inhibition (%) at 10 µM [2]: 0.5%
- Ki [2]: 500000 nM

Compound: C[C@H](CO)Cn1cc(-c2c(Cl)cnc3[nH]ccc23)nn1
- concentration in cell lysate [4]: 1.15 ng/mL
- concentration in cytoplasm [4]: 1.65 ng/mL and 1.13 ng/mL
- concentration in periplasm [4]: 1.78 ng/mL and 1.1 ng/mL
- concentration in cell lysate [5]: 1.28 ng/mL and 1.64 ng/mL and 1.22 ng/mL
- concentration in cytoplasm [5]: 0.241 ng/mL and 0.347 ng/mL and 0.466 ng/mL
- concentration in membrane [5]: 0.243 ng/mL and 0.237 ng/mL and 0.161 ng/mL
- concentration in periplasm [5]: 0.384 ng/mL and 0.893 ng/mL and 0.839 ng/mL
- ΔTm (°C) at 500 µM [1]: 1.51 °C
- Inhibition (%) at 10 µM [2]: 91%
- Ki [2]: 375 nM

Compound: Clc1cnc2[nH]ccc2c1-c1cn(-c2cccnc2)nn1
- ΔTm (°C) at 500 µM [1]: 1.03 °C
- Inhibition (%) at 10 µM [2]: 84%
- Ki [2]: 376 nM

Compound: Cc1ccc(-n2cc(-c3c(Cl)cnc4[nH]ccc34)nn2)cc1
- ΔTm (°C) at 500 µM [1]: -0.20 °C
- Inhibition (%) at 10 µM [2]: 40%
- Ki [2]: > 10000 nM

Compound: C[C@H](O)Cn1cc(-c2c(Cl)cnc3[nH]ccc23)nn1
- ΔTm (°C) at 500 µM [1]: 1.60 °C
- Inhibition (%) at 10 µM [2]: 86%
- Ki [2]: 534 nM

Compound: O=C(Cn1cc(-c2c(Cl)cnc3[nH]ccc23)nn1)NCc1ccccc1
- ΔTm (°C) at 500 µM [1]: -0.20 °C
- Inhibition (%) at 10 µM [2]: 62%
- Ki [2]: 9900 nM

Compound: C[C@@H](CCO)n1cc(-c2c(Cl)cnc3[nH]ccc23)nn1
- ΔTm (°C) at 500 µM [1]: 1.58 °C
- Inhibition (%) at 10 µM [2]: 86%
- Ki [2]: 482 nM

Compound: C[C@@H](CO)Cn1cc(-c2c(Cl)cnc3[nH]ccc23)nn1
- concentration in cell lysate [4]: 1.12 ng/mL and 1.33 ng/mL
- concentration in cytoplasm [4]: 1.37 ng/mL and 1.15 ng/mL and 2.66 ng/mL
- concentration in membrane [4]: 1.16 ng/mL and 1.3 ng/mL and 1.19 ng/mL
- concentration in periplasm [4]: 1.91 ng/mL and 1.1 ng/mL and 1.19 ng/mL
- concentration in cytoplasm [5]: 0.478 ng/mL and 0.267 ng/mL and 0.616 ng/mL
- concentration in membrane [5]: 0.219 ng/mL and 0.248 ng/mL and 0.338 ng/mL
- ΔTm (°C) at 500 µM [1]: 1.47 °C
- Inhibition (%) at 10 µM [2]: 91%
- Ki [2]: 367 nM

Compound: Fc1cccc(-n2cc(-c3c(Cl)cnc4[nH]ccc34)nn2)c1
- ΔTm (°C) at 500 µM [1]: 0.16 °C
- Inhibition (%) at 10 µM [2]: 72%
- Ki [2]: 2700 nM

Compound: C[C@H](O)CCn1cc(-c2c(Cl)cnc3[nH]ccc23)nn1
- ΔTm (°C) at 500 µM [1]: 1.31 °C
- Inhibition (%) at 10 µM [2]: 90%
- Ki [2]: 325 nM

Compound: Clc1cnc2[nH]ccc2c1-c1ccn[nH]1
- ΔTm (°C) at 500 µM [1]: 3.23 °C
- Inhibition (%) at 10 µM [2]: 90%
- Ki [2]: 388 nM

Compound: C[C@@H](O)Cn1cc(-c2c(Cl)cnc3[nH]ccc23)nn1
- ΔTm (°C) at 500 µM [1]: 1.27 °C
- Inhibition (%) at 10 µM [2]: 87%
- Ki [2]: 443 nM

Compound: Nc1cc(-c2ccn[nH]2)c(Cl)cn1
- ΔTm (°C) at 500 µM [1]: 0.39 °C
- Ki [2]: 20000 nM

Compound: Cc1cc(-c2cc(N)ncc2Cl)[nH]n1
- ΔTm (°C) at 500 µM [1]: 0.51 °C
- Inhibition (%) at 10 µM [2]: 40%
- Ki [2]: 9950 nM

Compound: C[C@@H](O)CCn1cc(-c2c(Cl)cnc3[nH]ccc23)nn1
- concentration in cell lysate [4]: 1.06 ng/mL and 1.12 ng/mL
- concentration in cytoplasm [4]: 1.24 ng/mL and 1.16 ng/mL
- concentration in membrane [4]: 1.12 ng/mL
- concentration in periplasm [4]: 1.47 ng/mL
- concentration in cell lysate [5]: 1.65 ng/mL and 0.952 ng/mL and 1.49 ng/mL
- concentration in cytoplasm [5]: 0.3 ng/mL and 0.321 ng/mL and 0.297 ng/mL
- concentration in membrane [5]: 0.199 ng/mL and 0.107 ng/mL and 0.0887 ng/mL
- ΔTm (°C) at 500 µM [1]: 1.33 °C
- Inhibition (%) at 10 µM [2]: 91%
- Ki [2]: 444 nM

Compound: Clc1cnc2[nH]ccc2c1-c1c[nH]nn1
- concentration in cell lysate [6]: 0.588 ng/mL
- concentration in cell lysate [7]: 0.425 ng/mL and 0.2 ng/mL and 0.179 ng/mL
- concentration in membrane [7]: 2.79 ng/mL and 1.94 ng/mL and 1.57 ng/mL
- concentration in periplasm [7]: 0.447 ng/mL and 0.264 ng/mL and 0.604 ng/mL
- concentration in cytoplasm [8]: 0.193 ng/mL and 0.131 ng/mL
- concentration in membrane [8]: 0.995 ng/mL and 2 ng/mL and 1.05 ng/mL
- concentration in cytoplasm [5]: 0.119 ng/mL
- concentration in membrane [5]: 0.696 ng/mL and 0.308 ng/mL
- concentration in periplasm [5]: 0.313 ng/mL and 0.135 ng/mL
- ΔTm (°C) at 500 µM [1]: 1.31 °C
- Inhibition (%) at 10 µM [2]: 83%
- Ki [2]: 1300 nM

Compound: N#Cc1ccc(Cn2cc(-c3c(Cl)cnc4[nH]ccc34)nn2)cc1
- ΔTm (°C) at 500 µM [1]: 0.26 °C
- Inhibition (%) at 10 µM [2]: 44%
- Ki [2]: 16200 nM

Compound: O=C(O)Cn1cc(-c2c(Cl)cnc3[nH]ccc23)nn1
- ΔTm (°C) at 500 µM [1]: 1.36 °C
- Inhibition (%) at 10 µM [2]: 24%
- Ki [2]: 14500 nM

Compound: OCCn1cc(-c2c(Cl)cnc3[nH]ccc23)nn1
- ΔTm (°C) at 500 µM [1]: 1.12 °C
- Inhibition (%) at 10 µM [2]: 77%
- Ki [2]: 2400 nM

Compound: Clc1cnc2[nH]ccc2c1-c1cn(-c2ccccc2)nn1
- ΔTm (°C) at 500 µM [1]: 0.49 °C
- Inhibition (%) at 10 µM [2]: 87%
- Ki [2]: 916 nM

Compound: C[C@@H](CO)n1cc(-c2c(Cl)cnc3[nH]ccc23)nn1
- ΔTm (°C) at 500 µM [1]: 1.94 °C
- Inhibition (%) at 10 µM [2]: 88%
- Ki [2]: 613 nM

Compound: Clc1cnc2[nH]ccc2c1-c1cn(Cc2ccccc2)nn1
- ΔTm (°C) at 500 µM [1]: 0.37 °C
- Inhibition (%) at 10 µM [2]: 63%
- Ki [2]: 6500 nM

Compound: COc1ccc(CNC(=O)Cn2cc(-c3c(Cl)cnc4[nH]ccc34)nn2)cc1
- ΔTm (°C) at 500 µM [1]: -0.33 °C
- Inhibition (%) at 10 µM [2]: 25%
- Ki [2]: > 10000 nM

Compound: NC(=O)Cn1cc(-c2c(Cl)cnc3[nH]ccc23)nn1
- ΔTm (°C) at 500 µM [1]: 0.45 °C
- Inhibition (%) at 10 µM [2]: 82%
- Ki [2]: 799 nM
